Anti-infective test results gathered from many reports (values: NIAID ChemDB through PubChem).

Shared fields: target-level tests; species: HIV-1; protein: Protease

Conditions beyond the fields shown may differ between rows.

compound | setting | read by | read-out | value
CC(C)(CCOC(=O)NCCO)CN(C[C@@H](O)[C@H](Cc1ccccc1)NC(=O)O[C@H]1CO[C@H]2OCC[C@H]21)S(=O)(=O)c1ccc2c(c1)OCO2 |  | fluorescence | Ki | <0.001 µM
CC1(C)S[C@H]([C@H](NC(=O)Cc2ccccn2)C(=O)NCc2ccccc2)N[C@H]1C(=O)NCCNC(=O)[C@@H]1N[C@@H]([C@H](NC(=O)Cc2ccccn2)C(=O)NCc2ccccc2)SC1(C)C |  |  | IC50 | 0.0005 µM
CC[C@@H](C)[C@H](NC(=O)CN(CC1CCCCC1)C(=O)[C@@H](O)[C@H](Cc1ccccc1)NC(=O)[C@H](CC(N)=O)NC(=O)OC(C)(C)C)C(=O)NCC1CCCCC1 |  |  | IC50 | >1000 µM
CC(O)[C@H](NC(=O)CCCCCCCCCCCCCCC(=O)N[C@@H](Cc1ccc(N)cc1)C(=O)N[C@@H](Cc1ccccc1)C(=O)O)C(=O)N[C@H](C(=O)N[C@@H](Cc1ccccc1)C(N)=O)C1CCCCC1 |  | HPLC | IC50 | 0.71 µM
CC(C)(CCCNS(C)(=O)=O)CN(C[C@@H](O)[C@H](Cc1ccccc1)NC(=O)O[C@H]1CO[C@H]2OCC[C@H]21)S(=O)(=O)c1cccc(N)c1 |  | fluorescence | Ki | <0.001 µM
CC(C)(C)NC(=O)[C@H]1N(C(=O)[C@@H](O)[C@H](Cc2ccccc2)NC(=O)[C@H](CC(N)=O)NC(=O)COc2cccc(-c3ccccc3)c2)CSC1(C)C |  |  | IC50 | <0.05 µM
Cc1ccccc1CNC(=O)[C@H]1N(C(=O)[C@@H](O)[C@H](CCc2ccccc2)NC(=O)O[C@H]2CO[C@H]3OCC[C@H]32)CSC1(C)C |  |  | Ki | 0.0000052 µM
CC(O)[C@H](NC(=O)CCCCCCCCCCCCCCC(=O)N[C@@H](CC(N)=O)C(=O)N[C@@H](Cc1ccccc1)C(=O)O)C(=O)N[C@@H](CC1CCCCC1)C(=O)N[C@@H](Cc1ccccc1)C(N)=O |  | HPLC | IC50 | 1.6 µM
CC(C)(C)OC(=O)N[C@@H](Cc1ccccc1)[C@H](O)CNC[C@@H](O)[C@H](Cc1ccccc1)NC(=O)C(C)(C)C | pH 5.5 | HPLC | IC50 | <10 µM
COC(=O)CCCOc1ccc2ccc(OCCCC(=O)N[C@H](C(=O)N[C@@H](CC(C)C)C(=O)N[C@H](C(=O)OC)C(C)C)[C@@H](C)O)cc2c1 |  | fluorescence | IC50 | >4.5 µM
CC(C)(CCCOC(=O)N1CCOCC1)CN(C[C@@H](O)[C@H](Cc1ccccc1)NC(=O)O[C@H]1CO[C@H]2OCC[C@H]21)S(=O)(=O)c1ccc2c(c1)OCO2 |  | fluorescence | Ki | <0.001 µM
CSCC[C@H](NC(=O)CCCCCCCCCCCCCCC(=O)N[C@@H](CC(N)=O)C(=O)N[C@@H](CCc1ccccc1)C(=O)O)C(=O)N[C@@H](CC(C)C)C(=O)N[C@@H](Cc1ccccc1)C(N)=O |  | HPLC | IC50 | 0.57 µM
CC(C)[C@@H](C(=O)N[C@@H](Cc1ccccc1)C[C@H](O)[C@H](Cc1ccccc1)NC(=O)COc1c(Cl)cccc1Cl)N1CCCNC1=O |  |  | IC50 | <0.0005 µM
CC(O)[C@H](NC(=O)CCCCCCCCCCCCCCC(=O)N[C@@H](CC(N)=O)C(=O)N[C@@H](Cc1ccccc1)C(=O)O)C(=O)N1CCC[C@H]1C(=O)N[C@@H](Cc1ccccc1)C(N)=O |  |  | IC50 | >5.5 µM
Cc1noc(C)c1CNC(=O)[C@H]1N(C(=O)[C@@H](O)C[C@@H](Cc2ccccc2)C(=O)N[C@H]2c3ccccc3OC[C@H]2O)COC12CCCC2 |  |  | IC50 | 0.0001 µM
CC(C)C[C@H](NC(=O)[C@@H](NC(=O)CCCCCCCCCCCCCCC(=O)N[C@@H](CC(N)=O)C(=O)N[C@@H](CC1CCCCC1)C(=O)O)C(C)C)C(=O)N[C@@H](Cc1ccccc1)C(N)=O |  | HPLC | IC50 | 0.41 µM
CC(C)(CCNC(=O)O[C@@H]1CCOC1)CN(C[C@@H](O)[C@H](Cc1ccccc1)NC(=O)O[C@H]1CO[C@H]2OCC[C@H]21)S(=O)(=O)c1ccc2c(c1)OCO2 |  | fluorescence | Ki | <0.001 µM
CC(C)(C)NC(=O)[C@H]1N(C(=O)[C@@H](O)[C@H](Cc2ccccc2)NC(=O)[C@H](CC(N)=O)NC(=O)COc2ccc3ccccc3n2)CSC1(C)C |  |  | IC50 | <0.05 µM
CC(C)(CCCCCNC(=O)c1ccccc1)CN(C[C@@H](O)[C@H](Cc1ccccc1)NC(=O)O[C@H]1CO[C@H]2OCC[C@H]21)S(=O)(=O)c1ccc2c(c1)OCO2 |  | fluorescence | Ki | <0.001 µM
Cc1ccccc1OCC(=O)N[C@@H](Cc1ccccc1)[C@@H](O)C[C@H](Cc1ccccc1)NC(=O)[C@H](C(C)C)N1CCCNC1=O |  |  | IC50 | <0.0005 µM
CNc1cccc(S(=O)(=O)N(C[C@@H](O)[C@H](Cc2ccccc2)NC(=O)O[C@H]2CO[C@H]3OCC[C@H]32)CC(C)(C)CCNC(=O)N(C)C)c1 |  | fluorescence | Ki | <0.001 µM
CCC(C)(C)OC(=O)N[C@@H](Cc1ccccc1)[C@H](O)CNC[C@@H](O)[C@H](Cc1ccccc1)NC(=O)OC(C)(C)CC | pH 5.5 | HPLC | IC50 | <10 µM
CC(C)(CCNC(=O)c1ccc(F)cc1)CN(C[C@@H](O)[C@H](Cc1ccccc1)NC(=O)O[C@H]1CO[C@H]2OCC[C@H]21)S(=O)(=O)c1ccc2c(c1)OCO2 |  | fluorescence | Ki | <0.001 µM
N=S(=O)(C[C@H](Cc1ccccc1)C(=O)N[C@H]1c2ccccc2C[C@H]1O)C[C@H](Cc1ccccc1)C(=O)N[C@H]1c2ccccc2C[C@H]1O |  |  | IC50 | 0.1539 µM
CC(C)(C)NC(=O)[C@@H]1CCCN1C(=O)[C@@H](O)[C@H](Cc1ccccc1)NC(=O)[C@H](CC(N)=O)NC(=O)OCc1ccccc1 |  |  | IC50 | <5 µM
CC(C)[C@H](NC(=O)c1nc2ccccc2[nH]1)C(=O)N[C@@H](Cc1ccccc1)[C@H](O)CNC[C@@H](O)[C@H](Cc1ccccc1)NC(=O)OC(C)(C)C | pH 5.5 | HPLC | IC50 | <10 µM
CC(C)(CCCNC(=O)N1CCOCC1)CN(C[C@@H](O)[C@H](Cc1ccccc1)NC(=O)O[C@H]1CO[C@H]2OCC[C@H]21)S(=O)(=O)c1ccc2c(c1)OCO2 |  | fluorescence | Ki | <0.001 µM
CC(C)(C)NOC[C@@H]1CN(Cc2cccnc2)CCN1CS(=O)C[C@@H](CCc1ccccc1)C(=O)N[C@H]1c2ccccc2C[C@H]1O |  |  | IC50 | 100 µM
CC(C)C[C@H](NC(=O)[C@@H](NC(=O)CCCCCCCCCCCCCCC(=O)N[C@@H](CC(N)=O)C(=O)N[C@@H](CCc1ccccc1)C(=O)O)C(C)O)C(=O)N[C@@H](Cc1cc(I)c(Oc2cc(I)c(O)c(I)c2)c(I)c1)C(N)=O |  | HPLC | IC50 | 0.4 µM
Cc1c(O)cccc1C(=O)N[C@@H](Cc1ccc(-c2cccs2)cc1)[C@H](O)CN1C[C@H]2CCCC[C@H]2C[C@H]1C(=O)NC(C)(C)C |  |  | IC50 | 0.006 µM
CC(C)C[C@H](NC(=O)[C@@H](NC(=O)CCCCCCCCCCCCCCC(=O)N[C@@H](Cc1ccc(N)cc1)C(=O)N[C@@H](Cc1ccccc1)C(=O)O)C(C)O)C(=O)N[C@@H](Cc1ccccc1)C(N)=O |  |  | Ki | 0.26 µM
CC(C)NC(=S)NCCC(C)(C)CN(C[C@@H](O)[C@H](Cc1ccccc1)NC(=O)O[C@H]1CO[C@H]2OCC[C@H]21)S(=O)(=O)c1ccc2c(c1)OCO2 |  | fluorescence | Ki | <0.001 µM
CC1(C)S[C@H](C(NC(=O)Cc2ccccc2)C(=O)NCC(=O)O)N[C@H]1C(=O)NCCNC(=O)[C@@H]1N[C@@H](C(NC(=O)Cc2ccccc2)C(=O)NCc2ccccc2)SC1(C)C |  |  | IC50 | 0.0037 µM
CC(C)C[C@H](NC(=O)[C@@H](NC(=O)CCCCCCCCCCCCCCC(=O)N[C@@H](CC(N)=O)C(=O)N[C@@H](Cc1ccccc1)C(=O)O)C(C)O)C(=O)N[C@@H](Cc1cc(I)c(Oc2cc(I)c(O)c(I)c2)c(I)c1)C(N)=O |  |  | IC50 | 0.4 µM
CCC(CCC#N)CN(C[C@@H](O)[C@H](Cc1ccccc1)NC(=O)OC(C)(C)C)S(=O)(=O)c1ccc(OC)cc1 |  | fluorescence | Ki | <0.001 µM
CC(C)[C@H](NC(=O)c1ccc2ccccc2n1)C(=O)N[C@@H](Cc1ccccc1)[C@H](O)CNC[C@@H](O)[C@H](Cc1ccccc1)NC(=O)OC(C)(C)C | pH 5.5 | HPLC | IC50 | <10 µM
CC(C)C[C@H](NC(=O)[C@@H](NC(=O)CCCCCCCCCCCCCCC(=O)N[C@@H](CS(C)(=O)=O)C(=O)N[C@@H](Cc1ccccc1)C(=O)O)C(C)O)C(=O)N[C@@H](Cc1cc(I)c(Oc2cc(I)c(O)c(I)c2)c(I)c1)C(N)=O |  | HPLC | IC50 | 0.46 µM
COc1ccc(S(=O)(=O)N(CC(C)C)C[C@@H](O)[C@H](CCc2ccccc2)NC(=O)[C@@H]2CN(c3ccc(C(C)=O)cc3)C(=O)O2)cc1 |  |  | Ki | 0.000004 µM
CC(C)C[C@H](NC(=O)[C@@H](NC(=O)CCCCCCCCCCCCCCC(=O)N[C@@H](CC(N)=O)C(=O)N[C@@H](Cc1ccccc1)C(=O)O)C(C)O)C(=O)N[C@@H](Cc1ccc(C(=O)c2ccccc2)cc1)C(N)=O |  |  | IC50 | 7.6 µM
CC(C)CC(=O)NCCCC(C)(C)CN(C[C@@H](O)[C@H](Cc1ccccc1)NC(=O)O[C@H]1CO[C@H]2OCC[C@H]21)S(=O)(=O)c1ccc2c(c1)OCO2 |  | fluorescence | Ki | <0.001 µM
CC(C)(C)OC(=O)N[C@@H](Cc1ccccc1)[C@H](O)CNC[C@@H](O)[C@H](Cc1ccccc1)NC(=O)OC[C@H](O)CO | pH 5.5 | HPLC | IC50 | <10 µM
COc1ccc(S(=O)(=O)NCCC(C)(C)CN(C[C@@H](O)[C@H](Cc2ccccc2)NC(=O)O[C@H]2CO[C@H]3OCC[C@H]32)S(=O)(=O)c2ccc3c(c2)OCO3)cc1 |  | fluorescence | Ki | <0.001 µM
CC1(C)S[C@H](C(NC(=O)Cc2ccccc2)C(=O)NCCO)N[C@H]1C(=O)NCCNC(=O)[C@@H]1N[C@@H](C(NC(=O)Cc2ccccc2)C(=O)NCc2ccccc2)SC1(C)C |  |  | IC50 | 0.013 µM
CC(C)(CCCNC(=O)CO)CN(C[C@@H](O)[C@H](Cc1ccccc1)NC(=O)O[C@H]1CO[C@H]2OCC[C@H]21)S(=O)(=O)c1ccc2c(c1)OCO2 |  | fluorescence | Ki | <0.001 µM
Cc1cc(C)c(OCC(=O)N[C@@H](Cc2ccccc2)[C@@H](O)C[C@H](Cc2ccccc2)NC(=O)[C@H](C(C)C)N2CCCNC2=O)c(C)c1 |  |  | IC50 | <0.0005 µM
CONC(=O)OCCCCC(C)(C)CN(C[C@@H](O)[C@H](Cc1ccccc1)NC(=O)O[C@H]1CO[C@H]2OCC[C@H]21)S(=O)(=O)c1ccc2c(c1)OCO2 |  | fluorescence | Ki | <0.001 µM
CC(C)C[C@H](NC(=O)[C@@H](NC(=O)CCCCCCCCCCCCCCC(=O)N[C@@H](Cc1ccccc1)C(=O)N[C@@H](Cc1ccccc1)C(=O)O)C(C)O)C(=O)N[C@@H](Cc1ccccc1)C(N)=O |  |  | IC50 | 0.48 µM
CCS(=O)(=O)NCCCCC(C)(C)CN(C[C@@H](O)[C@H](Cc1ccccc1)NC(=O)O[C@H]1CO[C@H]2OCC[C@H]21)S(=O)(=O)c1ccc2c(c1)OCO2 |  | fluorescence | Ki | <0.001 µM
CC(C)(C)NC(=O)[C@H]1N(C(=O)[C@@H](O)[C@H](Cc2ccccc2)NC(=O)[C@H](CC(N)=O)NC(=O)COc2cccc3c2CCCC3)CSC1(C)C |  |  | IC50 | <0.05 µM
CC(C)(CCNS(C)(=O)=O)CN(C[C@@H](O)[C@H](Cc1ccccc1)NC(=O)O[C@H]1CO[C@H]2OCC[C@H]21)S(=O)(=O)c1ccc2c(c1)OCO2 |  | fluorescence | Ki | <0.001 µM
CC(C)C[C@H](NC(=O)[C@H](CC(=O)O)NC(=O)CCCCCCCCCCCCCCC(=O)N[C@@H](CC(N)=O)C(=O)N[C@@H](Cc1ccccc1)C(=O)O)C(=O)N[C@@H](Cc1ccccc1)C(N)=O |  |  | IC50 | >5.5 µM
CC(C)(CCCCNS(C)(=O)=O)CN(C[C@@H](O)[C@H](Cc1ccccc1)NC(=O)O[C@@H]1CO[C@@H]2OCC[C@@H]21)S(=O)(=O)c1ccc(N)cc1 |  | fluorescence | Ki | <0.001 µM
CC(C)C[C@H](NC(=O)[C@@H](NC(=O)CCCCCCCCCCCCCCC(=O)N[C@@H](CC(N)=O)C(=O)N[C@@H](Cc1ccccc1)C(=O)O)C(C)O)C(=O)N[C@@H](Cc1cc(I)c(Oc2cc(I)c(O)c(I)c2)c(I)c1)C(N)=O |  | HPLC | IC50 | 0.4 µM
COc1ccc(S(=O)(=O)N(C[C@@H](O)[C@H](Cc2ccccc2)NC(=O)O[C@H]2CO[C@H]3OCC[C@H]32)CC(C)(C)CCCN)cc1 |  | fluorescence | Ki | <0.001 µM
Cc1cccc(C)c1CCC(=O)N[C@@H](Cc1ccccc1)[C@@H](O)C[C@H](Cc1ccccc1)NC(=O)[C@H](C(C)C)N1CCCNC1=O |  |  | IC50 | <0.0005 µM

Repeating the final 4 entries:

compound	setting	read by	read-out	value
CC(C)(CCCCNS(C)(=O)=O)CN(C[C@@H](O)[C@H](Cc1ccccc1)NC(=O)O[C@@H]1CO[C@@H]2OCC[C@@H]21)S(=O)(=O)c1ccc(N)cc1		fluorescence	Ki	<0.001 µM
CC(C)C[C@H](NC(=O)[C@@H](NC(=O)CCCCCCCCCCCCCCC(=O)N[C@@H](CC(N)=O)C(=O)N[C@@H](Cc1ccccc1)C(=O)O)C(C)O)C(=O)N[C@@H](Cc1cc(I)c(Oc2cc(I)c(O)c(I)c2)c(I)c1)C(N)=O		HPLC	IC50	0.4 µM
COc1ccc(S(=O)(=O)N(C[C@@H](O)[C@H](Cc2ccccc2)NC(=O)O[C@H]2CO[C@H]3OCC[C@H]32)CC(C)(C)CCCN)cc1		fluorescence	Ki	<0.001 µM
Cc1cccc(C)c1CCC(=O)N[C@@H](Cc1ccccc1)[C@@H](O)C[C@H](Cc1ccccc1)NC(=O)[C@H](C(C)C)N1CCCNC1=O			IC50	<0.0005 µM

An empty or dashed field is not shown. ICn: concentration for n% inhibition.